Measurements taken from PubChem BioAssay AID1224856 (National Center for Advancing Translational Sciences (NCATS), 2016).
The list shows a part of the results, in another mix than the full data. Results filed as inconclusive are left out. Activity calls are given as the source filed them. Calls follow the shape of the dose curve; as a rule, active = well fitted curve in the direction sought with a large enough effect; inconclusive = small, poorly fitted or top-dose-only effect, or another doubt; inactive = no such curve, though single readings can be large or run the other way.

Test: Cell viability assay for measurement of the protective activity of small molecules against cell death caused by Zika virus infection in human astrocytes
Conditions: human astrocytes ZIKV-induced death, ATP luminescence, 72 h; at 46.1 µM (top of the series)
Text: National Center for Advancing Translational Sciences [NCATS] Johns Hopkins University School of Medicine Florida State University Assay Overview: Zika virus infection causes cell death in certain cell types including human neural progenitor cells (hNPCs), astrocytes, and astrocytoma cell line (SNB-19). This cell viability assay measures the ATP content (level) in human astrocytes using a luminescence readout that is proportional to viable cell numbers. Decrease in the luminescence signal after Zika virus infection indicates the cell death caused by Zika virus. Small molecule inhibitors […] the decreased luminescence signal after Zika virus infection, indicating the protective effect of that small molecule on the cell death caused by Zika virus infection. This observed protective effect of small molecules against Zika virus induced cell death may result from inhibition of virus replication or cellular response to the virus infection.
Assay Protocol Summary: The medium for astrocytes contains AM basal medium (ScienCell, Cat.# 1801), AGS (ScienCell, Cat.# 1801), 10% FBS, and 1% Pen/Strep. […] The luminescence intensity of the assay plates was measured using a ViewLux plate reader (PerkinElmer). […] The percentage inhibitions of the decreased cell viability by small molecule inhibitors were then calculated.
In the case of `CCOP(=O)(CC)Oc1ccc([N+](=O)[O-])cc1` (configuration not stated), the protection from virus-induced death is reported as inactive: 6.7%.
For `C/C1=C2N=C(/C=C3N=C(/C(C)=C4\[N-][C@@](C)([C@@H]5N=C1[C@](C)(CCC(=O)NC[C@@H](C)OP(=O)([O-])O[C@H]1[C@@H](O)[C@@H](n6cnc7cc(C)c(C)cc76)O[C@@H]1CO)[C@H]5CC(N)=O)[C@@](C)(CC(N)=O)[C@@H]4CCC(N)=O)[C@@](C)(CC(N)=O)[C@@H]\3CCC(N)=O)C(C)(C)[C@@H]/2CCC(N)=O.[C-]#N.[Co+3]`, the protection from virus-induced death was inactive: -2.53%.
